# From PMC11021425, “Salmonella manipulates macrophage migration via SteC-mediated myosin light chain activation to penetrate the gut-vascular barrier” (The EMBO Journal, 2024)
# Tested on: Nc1ncnc2c1ncn2[C@@H]1O[C@H](COP(=O)(O)OP(=O)(O)OP(=O)(O)O)[C@@H](O)[C@H]1O
# Assay: purified protein
# Conditions: phosphate donor, acceptor murine Myl12a, 10 mM MnCl2, 25 mM Tris-HCl pH 7.5, 1 mM DTT, 30 °C, 30 min
substance,measurement,value
SteC FL (full-length SteC) (Salmonella enterica subsp. enterica serovar Typhimurium str. 14028S),Km,1.56 µM
